The text below walks through data of ChEMBL document CHEMBL3797100, “1,6-Bis[(benzyloxy)methyl]uracil derivatives-Novel antivirals with activity against HIV-1 and influenza H1N1 virus” (Bioorg Med Chem, 2016).

In experiment [1] the target is Human immunodeficiency virus type 1 reverse transcriptase (Human immunodeficiency virus 1, UniProt Q72547, V106A). Kind of experiment: Inhibition of HIV1 reverse transcriptase p66/p51 V106A mutant using poly(rA) template and measured after 40 mins by picogreen based spectrofluorometry.
Experiment [2] concerns the target Human immunodeficiency virus type 1 reverse transcriptase (Human immunodeficiency virus 1, UniProt Q72547, K103N/Y181C). The experiment is described as follows: Inhibition of HIV1 3B reverse transcriptase p66/p51 K103N/Y181C mutant using poly(rA) template and measured after 40 mins by picogreen based spectrofluorometry.
Experiment [3] addresses Human immunodeficiency virus type 1 reverse transcriptase (Human immunodeficiency virus 1, UniProt Q72547, Y181C). Kind of experiment: Inhibition of HIV1 reverse transcriptase p66/p51 Y181C mutant using poly(rA) template and measured after 40 mins by picogreen based spectrofluorometry.
In experiment [4] the target is Human immunodeficiency virus type 1 reverse transcriptase (Human immunodeficiency virus 1, UniProt Q72547, K103N). Kind of experiment: Inhibition of HIV1 reverse transcriptase p66/p51 K103N mutant using poly(rA) template and measured after 40 mins by picogreen based spectrofluorometry.

As for `Cc1cc(C#N)cc(C)c1Oc1nc(Nc2ccc(C#N)cc2)nc(N)c1Br` [ETRAVIRINE], the IC50 in experiment [1] is 0.03 µM; in experiment [2] it was 0.05 µM; in experiment [3], 0.03 µM; in experiment [4], 0.01 µM.
